The record followed here is patent US20100203559A1 (published 2010).

Positions count from the first letter of the chain named.

The labels stand for the following.
B1: α-SNAP-25 monoclonal antibody 1D3B8 (antibody, V domains shown)
VH: QVKLQESGAELVKPGASVKISCKASGYIFTDHALHWVRQKPEQGLEWIGYIFPGNGNIEYNEKFKGKATLTADKSSSTAYMQLNSLTSGDSAMYFCKKMDYWGQGTTVTVSS
VL: DVLMTQTPLSLPVSLGDQASISCRSSQSIVHSNGNTYLEWYLQKPGQSPKLLIYKVSNRFSGVPDRFSGSGSGTDFTLKISRVEAEDLGVYYCFQGSHVPPTFGAGTKLELKR
B2: α-SNAP-25 monoclonal antibody 2E2A6 (antibody, V domains shown)
VH: QVQLQQSDAELVKPGASVKISCRASGYTFTDHSIHWVKQQPGQGLEWIGYIFPGNGNIEYNDKFKGKATLTADKSSGTAYMQLNSLTSEDSAVYFCKRMGYWGQGTSVTVSS
VL: DVLMTQTPLTLSVTIGQPASISCKSSQSLLYTNGKTYLTWLFQRPGQSPKRLIYLVSELDSGVPDRFSGSGSGTDFTLEITRVEAEDLGVYYCLQSAHFPFTFGSGTKLEIKR
B3: α-SNAP-25 monoclonal antibody 3C1A5 (antibody, V domains shown)
VH: QVKLQESGAELVKPGASVKISCKASGYTFTDHSIHWVKQKPGQGLEWIGYLFPGNGNFEYNEKFKGKATLTADKSSSTVYMYLNSLTSEDSAVYFCKRMGYWGQGTTVTVSS
VL: B2 VL with L3V, Y31N, F42I, K50Q, E58K, E79K, T81S, A97S

For this experiment, the target named is SNAP-25134-206 peptide (human). Description: SPR (BIAcore 3000), peptide on CM5 chip, antibody as analyte.
B1: the binding result was “no binding (tested: 125 nM)”.

B2: the binding result is recorded as “no binding (tested: 10 µM)”.

Take B3: the binding result is “no binding (tested: 100 nM)”.
